Experimental findings from paper PMC12566046, “Arylpiperazinyl-Benzocycloheptapyrrole-Carboxamides Endowed with Dual Anticancer and Antiviral Activities” (Molecules, 2025) are described below.

In data set [1] the test system is ZIKV, strain Brazil/2016/INMI1. Nature of the data set: ZIKV viral yield reduction assay on Huh-7 cells. The data set is classed as cell-based, Zika virus. The settings on record: preliminary screening. The method, then: We developed a protocol to screen the potential antiviral activity of compounds 1–20 against ZIKV (strain Brazil) on Huh-7 cells, against an H1N1 IAV strain (PR/8/1934) on MDCK cells, and against SARS-CoV-2 (strain Milano) on Vero-TMPRSS. Each compound was tested in duplicate at concentrations of 50 μM, 5 μM, and 0.5 μM. Treatment was applied immediately after infection, and at 24–48 h post-infection, supernatants were collected to assess viral yield, determined as PFU/mL for ZIKV and SARS-CoV-2 or as TCID50/mL for IAV. The test allowed us to evaluate both the antiviral action and the cytotoxicity of each compound, comparing them with reference compounds, such as sofosbuvir for ZIKV and EIDD-1931 for IAV and SARS-CoV-2 (Supplementary Materials, Figures S87–S89).
Viral yield reduction assays for ZIKV and SARS-CoV-2 were performed as previously described by Plicanti. Briefly, 1 × 10^4 Huh-7 cells/well and 1.2 × 10^4 VERO TMPRSS cells/well were infected with ZIKV (MOI 1) or SARS-CoV-2 (MOI 0.05) in a primary 96-well plate for 2 h at 37 °C, 5% CO2. […] Supernatants were collected after 48 h (Huh-7) or 24 h (VERO TMPRSS), diluted 3-fold, and added onto VERO E6 or VERO TMPRSS monolayers, respectively. After 2 h at 37 °C, the inoculum was replaced with 0.75% carboxymethyl cellulose (Merck®, Darmstadt, Germany) in DMEM 2% FBS. After 48–72 h, cells were then fixed with 4% buffered formalin solution (Merck®, Darmstadt, Germany) and stained with 1% crystal violet (Merck®, Darmstadt, Germany). Titres and percentage of inhibition were calculated as follows:
PFU/mL = number of plaques*3^n/vol infection, where n is the dilution where plaques were counted:% inhibition = 100 × (1 − Titre-compound/Titre-untreated control) where Titre-compound and Titre-untreated control are the titres (PFU/mL) obtained on cells treated with compound or DMSO, respectively.
SI was obtained by dividing CC50 by EC50 for each drug/virus/cell line. Compounds with SI values ≥ 10 were active in vitro.

The test system of data set [2] is SARS-CoV-2 VR PV10734 (strain Milano). The data set is classed as cell-based. The conditions noted are these: for SARS‐CoV‐2/Vero TMPRSS SI: preliminary screening.

Regarding `COc1cccc(N2CCN(CCNC(=O)c3[nH]c4c(c3Cl)CCCc3ccccc3-4)CC2)c1` [Compound 6], the “ZIKV/Huh‐7 SI” value in data set [1] amounted to 16.49.
For `O=C(NCCN1CCN(c2ccccc2)CC1)c1c(Cl)[nH]c2c1CCCc1ccccc1-2` [Compound 12, 2-Chloro-N-(2-(4-phenylpiperazin-1-yl)ethyl)-1,4,5,6-tetrahydrobenzo[6,7]cyclohepta[1,2-b]pyrrole-3-carboxamide], the “ZIKV/Huh‐7 SI” value in data set [1] is on record as 22.20. The “SARS‐CoV‐2/Vero TMPRSS SI” value in data set [2] is given as 32.22.
For `N#Cc1ccccc1N1CCN(CCNC(=O)c2[nH]c3c(c2Cl)CCCc2ccccc2-3)CC1` [Compound 8, 3-Chloro-N-(2-(4-(2-cyanophenyl)piperazin-1-yl)ethyl)-1,4,5,6-tetrahydrobenzo[6,7]cyclohepta[1,2-b]pyrrole-2-carboxamide], in that order: 17.62 and 1.16.
For `CCOc1ccccc1N1CCN(CCNC(=O)c2[nH]c3c(c2Cl)CCCc2ccccc2-3)CC1` [Compound 7], in that order: 13.29 and 1.03.
For `COc1ccccc1N1CCN(CCNC(=O)c2[nH]c3c(c2Cl)CCCc2ccccc2-3)CC1` [Compound 5], in that order: 6.37 and 0.84.
Regarding `O=C(NCCCN1CCN(c2ccccc2)CC1)c1cc2c([nH]1)-c1ccccc1CCC2` [Compound 10, N-(3-(4-Phenylpiperazin-1-yl)propyl)-1,4,5,6-tetrahydrobenzo[6,7]cyclohepta[1,2-b]pyrrole-2-carboxamide], the “ZIKV/Huh‐7 SI” value in data set [1] stood at 3.46.
Same read-out and setting: in the case of “N-(3-(4-Benzylpiperazin-1-yl)propyl)-2-chloro-1,4,5,6-tetrahydrobenzo[6,7]cyclohepta[1,2-b]pyrrole-2-carboxamide [Compound 11]” it was 1.40; in that of `O=C(NCCN1CCN(c2ccc(Cl)cc2)CC1)c1[nH]c2c(c1Cl)CCCc1ccccc1-2` [Compound 3], 19.31.
Take `O=C(NCCN1CCN(c2ccccc2Cl)CC1)c1[nH]c2c(c1Cl)CCCc1ccccc1-2` [Compound 4]: the “ZIKV/Huh‐7 SI” value in data set [1] was 13.63. Also, the “SARS‐CoV‐2/Vero TMPRSS SI” value in data set [2] is listed as 1.36.
In the case of `O=C(NCCN1CCN(c2ccccc2Cl)CC1)c1c(Cl)[nH]c2c1CCCc1ccccc1-2` [Compound 14], the “ZIKV/Huh‐7 SI” value in data set [1] is 6.37.
Turning to `CCOc1ccccc1N1CCN(CCNC(=O)c2c(Cl)[nH]c3c2CCCc2ccccc2-3)CC1` [Compound 17], the “ZIKV/Huh‐7 SI” value in data set [1] is 3.67.
Same read-out and setting: in the case of `O=C(NCCN1CCN(c2ccc(Cl)c(Cl)c2)CC1)c1c(Cl)[nH]c2c1CCCc1ccccc1-2` [Compound 19] it was 2.95; in that of `O=C(NCCN1CCN(c2ccccc2)CC1)c1[nH]c2c(c1Cl)CCCc1ccccc1-2` [Compound 2, 3-Chloro-N-(2-(4-phenylpiperazin-1-yl)ethyl)-1,4,5,6-tetrahydrobenzo[6,7]cyclohepta[1,2-b]pyrrole-2-carboxamide], below 1.14.
As to `CCN1CCC[C@H]1CNC(=O)c1[nH]c2c(c1Cl)CCCc1ccccc1-2` [Compound 1, (S)-3-Chloro-N-(1-ethyl-2-pyrrolidinylmethyl)-5,6-dihydro-4H-benzo[6,7]cyclohepta[1,2-b]pyrrol-2-carboxamide], the “ZIKV/Huh‐7 SI” value in data set [1] is listed as 1.87. In data set [2], the “SARS‐CoV‐2/Vero TMPRSS SI” value came out at 1.54.
Consider `CC(C)OC(=O)[C@H](C)N[P@](=O)(OC[C@H]1O[C@@H](n2ccc(=O)[nH]c2=O)[C@](C)(F)[C@@H]1O)Oc1ccccc1` [sofosbuvir, reference compound], for which the “ZIKV/Huh‐7 SI” value in data set [1] came out at 144.98.
As to `O=c1nc(NO)ccn1[C@@H]1O[C@H](CO)[C@@H](O)[C@H]1O` [EIDD-1931, reference compound], the “selectivity index (SI)” value in data set [2] (SARS-CoV-2, VERO TMPRSS cells, CC50/EC50) was found to be 443.60. Moreover, the “SARS‐CoV‐2/Vero TMPRSS SI” value in data set [2] is 121.64.
For the compound `COc1ccccc1N1CCN(CCNC(=O)c2c(Cl)[nH]c3c2CCCc2ccccc2-3)CC1` [Compound 15], in data set [1], the “ZIKV/Huh‐7 SI” value is recorded as 1.99. The “SARS‐CoV‐2/Vero TMPRSS SI” value in data set [2] came out at 0.94.
For `O=C(NCCN1CCN(c2ccc(Cl)cc2)CC1)c1c(Cl)[nH]c2c1CCCc1ccccc1-2` [Compound 13], in that order: 44.58 and below 154.36.
Take `N#Cc1ccccc1N1CCN(CCNC(=O)c2c(Cl)[nH]c3c2CCCc2ccccc2-3)CC1` [Compound 18, 2-Chloro-N-(2-(4-(2-cyanophenyl)piperazin-1-yl)ethyl)-1,4,5,6-tetrahydrobenzo[6,7]cyclohepta[1,2-b]pyrrole-3-carboxamide]: the “ZIKV/Huh‐7 SI” value in data set [1] was 3.77.
On to `O=C(NCCCN1CCN(Cc2ccccc2)CC1)c1c(Cl)[nH]c2c1CCCc1ccccc1-2` [Compound 20, N-(3-(4-Benzylpiperazin-1-yl)propyl)-2-chloro-1,4,5,6-tetrahydrobenzo[6,7]cyclohepta[1,2-b]pyrrole-3-carboxamide], for which the “ZIKV/Huh‐7 SI” value in data set [1] stood at 1.32. Also, the “SARS‐CoV‐2/Vero TMPRSS SI” value in data set [2] is listed as 0.87.
As to `O=C(NCCN1CCN(c2ccc(Cl)c(Cl)c2)CC1)c1[nH]c2c(c1Cl)CCCc1ccccc1-2` [Compound 9], in data set [1], the “ZIKV/Huh‐7 SI” value came to 20.19.
